Measurements reported in PubChem BioAssay AID504761 (Drosophila RNAi Screening Center, 2011).

- Purpose: 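Fly genes whose silencing reduces dengue virus type 2 infection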 (primary screen)
- Cell system: D.Mel-2 cells from Drosophila
- Reagent: long dsRNA against Drosophila genes
- Treatment: infection with dengue virus type 2; dose and infection time not stated
- Measured: 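Per well on two replicate plates, imaging gave the percent of cells positive for viral envelope protein, ranked by infection, and a nuclear count of cells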
- Reading the numbers: infection score: higher = more virus-infected cells; cell count: higher = more cells in the well
- Hit rule: 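Low infection ranks in the two replicates (chance level up to 0.065) followed by a retest with a 1.5-fold or larger significant decrease, p below 0.05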
- Calls: active = confirmed: knock-down lowers infection; inactive = not picked or not confirmed
The screen tested about 22,000 reagents; shown is an unselected part of those that have a named target and a result. Over the whole deposit, 116 (0.52%) are marked active. 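Calls depend on retest data that are not deposited; infection was ranked per plate without normalising between plates; the unit of the infection score is not given.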 Raw values are not corrected between plates. A number with no mark means an inactive call. Reagent sequences are not shown. The record does not give: the amount of reagent, the time to read-out.

gene knocked down | amplicon | infection score, replicate 1 | infection score, replicate 2 | cell count, replicate 1 | cell count, replicate 2
Grip75 | DRSC03337 | 2.61 | 1.51 | 6772 | 6757
TwdlP (TweedleP) | DRSC14734 | 26.7 | 15.5 | 5351 | 4847
CG15253 | DRSC01871 | 20.1 | 4.69 | 3553 | 6808
CG15253 | DRSC26826 | 12.7 | 5.81 | 6483 | 6594
RpS2 (Ribosomal protein S2) | DRSC03614 | 34.6 | 21 | 2276 | 2365
RpS2 (Ribosomal protein S2) | DRSC26760 | 7.45 | 9.31 | 2174 | 2299
Vha55 (Vacuolar H[+]-ATPase 55kD subunit) | DRSC16896 | 0.22 | 11.9 | 454 | 2181
Vha55 (Vacuolar H[+]-ATPase 55kD subunit) | DRSC26184 | 3.04 | 4.69 | 1021 | 4758
CG42390 | DRSC23064 | 0.82 | 1.39 | 6227 | 6745
CG42390 | DRSC23065 | 0.93 | 5.02 | 6117 | 6452
RpL34a (Ribosomal protein L34a) | DRSC15964 | 17.2 | 3 | 4001 | 6996
CG18088 | DRSC02654 | 5.71 | 5.54 | 6374 | 6891
Cpr97Ea (Cuticular protein 97Ea) | DRSC15974 | 2.86 | 4.37 | 6298 | 6470
Cpr97Ea (Cuticular protein 97Ea) | DRSC26548 | 8.52 | 4.1 | 6489 | 6684
CR30029 (pseudo) | DRSC06724 | 13.3 | 5.35 | 5989 | 6734
CG14805 | DRSC18554 | – | – | 302 | 314
CG12003 | DRSC08214 | 6.43 | 4 | 5991 | 6032
CG10053 | DRSC12502 | – | 20.6 | 458 | 4280
CG10053 | DRSC29993 | 4.63 | 5.72 | 6263 | 6117
CG5348 | DRSC06933 | 8.53 | 8.79 | 6156 | 6248
CG32767 | DRSC18386 | 1.32 | 2.56 | 6042 | 6144
CG32767 | DRSC23721 | 8.96 | 7.08 | 6036 | 5731
stx (stuxnet) | DRSC23075 | 1.82 | 19.4 | 5718 | 2185
stx (stuxnet) | DRSC29601 | 17.3 | 9.51 | 4042 | 4185

Looked up above:
CG42390 [DRSC23065], cell count, replicate 2 → 6452
Result of Cpr97Ea (Cuticular protein 97Ea) [DRSC15974] in “infection score, replicate 2”: 4.37
Entry for CG42390 [DRSC23064] in “infection score, replicate 2”: 1.39
Result for TwdlP (TweedleP) [DRSC14734] in “cell count, replicate 1”: 5351
